# According to PubChem BioAssay AID977622 (Broad Institute, 2014):
# This is a selection; strong and weak results do not stand in their true shares. Records with an inconclusive call do not appear. The source made the active and inactive calls.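 The calls were made as follows: active = Green signal of the normal strain falls at least twice as much as red signal of the resistant mutant, with overall culture growth loss under a set limit; inconclusive = no clear call, values can overlap the other calls; inactive = the rest.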
# Assay: growth inhibition of wild-type GFP E. coli, dose response, h38 mutant RFP, cherry-pick (AID 977622)
# Conditions: E. coli WT ribosome GFP fluorescence, mixed culture, 24 h; at 50 µM (top of the series)
row,Structure (SMILES),"activity change, negative = inhibition"
1,O=[N+]([O-])c1cc([N+](=O)[O-])c(Nc2nnnn2CCO)c([N+](=O)[O-])c1,inactive: -10.9
